Key:
C=C(OP(=O)(O)O)C(=O)O = assay: purified protein; settings: E4P 232 μM, Mn2+ (MnSO4 100 μM), 50 mM BTP pH 6.8, 25 °C, dimer in solution
[1] = system: O=C[C@H](O)[C@H](O)COP(=O)(O)O; assay: purified protein; settings: PEP 126 μM, Mn2+ (MnSO4 100 μM), 50 mM BTP pH 6.8, 25 °C, dimer in solution

## NmeDAH7PS (Neisseria meningitidis 3-deoxy-D-arabino-heptulosonate 7-phosphate synthase) (Neisseria meningitidis MC58; R126S)
C=C(OP(=O)(O)O)C(=O)O
  Km: 25 ± 1 µM
  kcat: 12.6 ± 0.1 s⁻¹
  kcat/Km: 500000 M⁻¹ s⁻¹
[1]
  Km: 13.4 ± 0.3 µM
  kcat: 12.6 ± 0.1 s⁻¹
  kcat/Km: 900000 M⁻¹ s⁻¹
